PubChem BioAssay AID1224833, University of Georgia | 2016

Purpose: 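Human genes whose knock-down alters rotavirus replication in monkey cells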 (primary screen)
Cells: monkey MA104 kidney cells
Reagents: siRNA pool against human genes, 50 nM
Duration: 48 h knock-down before infection; read 24 h after infection
Conditions: infection with rotavirus strain RV3 two days after transfection; infectious dose for this stage not given
Detection: 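z-score of rotavirus antigen signal per well, from a fluorescent immunoassay, relative to non-targeting control wells on the same plate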
Reading the numbers: z-score vs non-targeting control: higher = more rotavirus replication than with non-targeting control
Active means: In these data the active calls have z-score vs non-targeting control at about -1 or lower, or at about 1 or higher
Calls: active = z-score beyond 1 either way; inactive = z-score within 1 of zero
Here is one part, drawn at random, of about 12,000 reagents tested. About 5,600 of them (46%) count as active. 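Active calls cover z-scores past 1 in both directions, so they include lowered as well as raised rotavirus replication.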

| gene symbol | z-score vs non-targeting control | activity call |
| --- | --- | --- |
| RNASET2 (ribonuclease T2) | -0.887 | inactive |
| FCN1 (ficolin 1) | -0.748 | inactive |
| SKAP2 (src kinase associated phosphoprotein 2) | 1.46 | active |
| ZNF629 (zinc finger protein 629) | -1.2 | active |
| TMEM132E (transmembrane protein 132E) | -2.32 | active |
| CLEC12B (C-type lectin domain family 12 member B) | -2.03 | active |
| ATP6V0C (ATPase H+ transporting V0 subunit c) | -1.37 | active |
| OIP5 (Opa interacting protein 5) | 2.25 | active |
| VEZF1 (vascular endothelial zinc finger 1) | -0.621 | inactive |
| S100B (S100 calcium binding protein B) | 0.454 | inactive |
| NSUN4 (NOP2/Sun RNA methyltransferase 4) | -1.2 | active |
| TFAP4 (transcription factor AP-4) | -1.26 | active |
| SLC35F4 | 2.26 | active |
| LAMTOR4 (late endosomal/lysosomal adaptor, MAPK and MTOR activator 4) | -1.75 | active |
| MMP2 (matrix metallopeptidase 2) | 0.906 | inactive |
| TDRD1 (tudor domain containing 1) | -1.04 | active |
| ITGAM (integrin subunit alpha M) | -0.477 | inactive |
| SERPINB7 (serpin family B member 7) | -1.78 | active |
| ACRV1 (acrosomal vesicle protein 1) | -1.1 | active |
| DXO (decapping exoribonuclease) | -2.03 | active |
| COL4A5 (collagen type IV alpha 5 chain) | -0.948 | inactive |
| ZCCHC17 (zinc finger CCHC-type containing 17) | 1.93 | active |
| PFDN2 (prefoldin subunit 2) | -0.355 | inactive |
| DPCD (deleted in primary ciliary dyskinesia homolog (mouse)) | 0.62 | inactive |
| ADAMTS8 (ADAM metallopeptidase with thrombospondin type 1 motif 8) | 0.897 | inactive |
| ZNF618 (zinc finger protein 618) | -1.1 | active |
| PSORS1C2 (psoriasis susceptibility 1 candidate 2) | -2.79 | active |
| USP33 (ubiquitin specific peptidase 33) | -0.89 | inactive |
| CFAP161 (cilia and flagella associated protein 161) | -0.609 | inactive |
| FAM114A1 (family with sequence similarity 114 member A1) | 2.09 | active |
| LAMC1 (laminin subunit gamma 1) | 0.177 | inactive |
| BEND3 (BEN domain containing 3) | -0.332 | inactive |
| MICALL2 (MICAL like 2) | -1.97 | active |
| FOCAD (focadhesin) | -1.6 | active |
| CCDC121 (coiled-coil domain containing 121) | 0.869 | inactive |
| LRRC27 (leucine rich repeat containing 27) | -0.445 | inactive |
| TNFSF13B (TNF superfamily member 13b) | -0.534 | inactive |
| EIF5B (eukaryotic translation initiation factor 5B) | 0.5 | inactive |
| MRPL19 (mitochondrial ribosomal protein L19) | 0.351 | inactive |
| RABIF (RAB interacting factor) | -0.158 | inactive |
| IK (IK cytokine) | -1.72 | active |
| MTG2 (mitochondrial ribosome associated GTPase 2) | 0.482 | inactive |
| EGR2 (early growth response 2) | -1.09 | active |
| OPRK1 (opioid receptor kappa 1) | -1.89 | active |
| AGPAT4 (1-acylglycerol-3-phosphate O-acyltransferase 4) | -1.13 | active |
| MUC4 (mucin 4, cell surface associated) | -0.765 | inactive |
| JMJD7 (jumonji domain containing 7) | -1.58 | active |
| PDE1A (phosphodiesterase 1A) | -2.64 | active |
| CRYGC (crystallin gamma C) | 0.711 | inactive |
| TPX2 (TPX2 microtubule nucleation factor) | 0.436 | inactive |
| MAPK6 (mitogen-activated protein kinase 6) | 3.77 | active |
| SF3A2 (splicing factor 3a subunit 2) | -0.601 | inactive |
| CDC23 (cell division cycle 23) | 1.39 | active |
| NRIP3 (nuclear receptor interacting protein 3) | -1.29 | active |
| GPR17 (G protein-coupled receptor 17) | -0.545 | inactive |
| ZSCAN5A (zinc finger and SCAN domain containing 5A) | 0.951 | inactive |
| VAX2 (ventral anterior homeobox 2) | -2.47 | active |
| GNA13 (G protein subunit alpha 13) | -1.41 | active |
| PI3 (peptidase inhibitor 3) | -0.551 | inactive |
| USP9Y (ubiquitin specific peptidase 9 Y-linked) | -1.24 | active |
| SPIDR (scaffold protein involved in DNA repair) | -1.08 | active |
| UBFD1 (ubiquitin family domain containing 1) | -1.28 | active |
| UPK1B (uroplakin 1B) | -0.126 | inactive |
| TTLL10 (tubulin tyrosine ligase like 10) | 0.989 | inactive |
| DECR2 (2,4-dienoyl-CoA reductase 2) | -1.8 | active |
| ARHGAP27 (Rho GTPase activating protein 27) | 2.28 | active |
| SPCS3 (signal peptidase complex subunit 3) | 1.37 | active |
| TAS1R3 (taste 1 receptor member 3) | -1.14 | active |
| HMGCL (3-hydroxy-3-methylglutaryl-CoA lyase) | -1.8 | active |
| DOP1A (DOP1 leucine zipper like protein A) | -0.765 | inactive |
| ODC1 (ornithine decarboxylase 1) | -3.46 | active |
| AJUBA (ajuba LIM protein) | -1.28 | active |
| NENF (neudesin neurotrophic factor) | -0.276 | inactive |
| GPANK1 (G-patch domain and ankyrin repeats 1) | 0.25 | inactive |
| LIG3 (DNA ligase 3) | -1.28 | active |
| COQ7 (coenzyme Q7, hydroxylase) | -0.525 | inactive |
| MPDZ (multiple PDZ domain crumbs cell polarity complex component) | 1.03 | active |
| SPRING1 (SREBF pathway regulator in golgi 1) | -0.587 | inactive |
| ADAP2 (ArfGAP with dual PH domains 2) | 0.0688 | inactive |
| ERMARD (ER membrane associated RNA degradation) | 0.076 | inactive |
| FNBP1L (formin binding protein 1 like) | 0.52 | inactive |
| ACTN4 (actinin alpha 4) | -0.0703 | inactive |
| FOXQ1 (forkhead box Q1) | -2.72 | active |
| ZNF444 (zinc finger protein 444) | 1.06 | active |
| CENPK (centromere protein K) | 0.309 | inactive |
| SLC1A7 | -0.783 | inactive |
| LAMA1 (laminin subunit alpha 1) | 0.405 | inactive |
| SERPIND1 (serpin family D member 1) | 0.578 | inactive |
| LGALS13 (galectin 13) | -1.36 | active |
| AGO1 (argonaute RISC component 1) | 0.783 | inactive |
| DNAJB2 (DnaJ heat shock protein family (Hsp40) member B2) | -1.04 | active |
| PDCD2L (programmed cell death 2 like) | -0.62 | inactive |
| STOML2 (stomatin like 2) | -1.57 | active |
| MATN1 (matrilin 1) | 0.64 | inactive |
| POC5 (POC5 centriolar protein) | -2.02 | active |
| FBLN2 (fibulin 2) | 0.399 | inactive |
| RAB11FIP5 (RAB11 family interacting protein 5) | -0.192 | inactive |
| ZFP36 (ZFP36 zinc finger CCCH-type) | -0.934 | inactive |
| ZNF681 (zinc finger protein 681) | -1.1 | active |
| ADGRG1 (adhesion G protein-coupled receptor G1) | -1.54 | active |
| ZNF394 (zinc finger protein 394) | 0.285 | inactive |
| LRFN5 | -0.195 | inactive |
| DDC (dopa decarboxylase) | -1.13 | active |
| SRSF3 (serine and arginine rich splicing factor 3) | 0.838 | inactive |
| RBM45 (RNA binding motif protein 45) | -1.54 | active |
| GBP6 (guanylate binding protein family member 6) | -1.15 | active |
| NEU2 (neuraminidase 2) | 2.91 | active |
| GGT7 (gamma-glutamyltransferase 7) | 0.828 | inactive |
| REG1A (regenerating family member 1 alpha) | -0.914 | inactive |
| AHSA1 (activator of HSP90 ATPase activity 1) | 0.525 | inactive |

In a second layout: 11 of the entries above.
gene symbol	z-score vs non-targeting control	activity call
AGO1 (argonaute RISC component 1)	0.783	inactive
DNAJB2 (DnaJ heat shock protein family (Hsp40) member B2)	-1.04	active
PDCD2L (programmed cell death 2 like)	-0.62	inactive
STOML2 (stomatin like 2)	-1.57	active
MATN1 (matrilin 1)	0.64	inactive
POC5 (POC5 centriolar protein)	-2.02	active
FBLN2 (fibulin 2)	0.399	inactive
RAB11FIP5 (RAB11 family interacting protein 5)	-0.192	inactive
ZFP36 (ZFP36 zinc finger CCCH-type)	-0.934	inactive
ZNF681 (zinc finger protein 681)	-1.1	active
ADGRG1 (adhesion G protein-coupled receptor G1)	-1.54	active
